PubChem BioAssay AID504761 – Drosophila RNAi Screening Center | 2011
In all, the deposit lists about 22,000 reagents; below is an unselected part of those with a known target gene and a result. Of all reagents, 116 (0.52%) got an active call. 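Calls depend on retest data that are not deposited; infection was ranked per plate without normalising between plates; the unit of the infection score is not given.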 The numbers tell different reagents against one gene apart. Names joined by + are all predicted targets of the reagent. Not all columns of the deposit are shown. Not given: the amount of reagent, the time to read-out.

Purpose: 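Insect host genes that dengue virus relies on to spread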 (primary screen)
Cell system: D.Mel-2 cells from Drosophila
Reagent: long dsRNA against Drosophila genes
Treatment: infection with dengue virus type 2; dose and infection time not stated
Measurement: 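Cells stained for dengue envelope protein and imaged; percent of infected cells per well on duplicate plates, ranked by infection, with stained nuclei counted for cell number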
Reading the numbers: infection score: higher = more virus-infected cells
Active means: 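Low infection ranks in the two replicates (chance level up to 0.065) followed by a retest with a 1.5-fold or larger significant decrease, p below 0.05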
Calls: active = confirmed: knock-down lowers infection; inactive = not picked or not confirmed

Depletion of BRWD3 #1 gave: infection score, replicate 1 = 7.65; inactive.
BRWD3 #2 showed infection score, replicate 1 = 2.88; inactive.
imd #1 gave infection score, replicate 1 = 9.36; inactive.
imd #2 gave infection score, replicate 1 = 12.3; inactive.
After knock-down of PH4alphaPV #1, the record shows infection score, replicate 1 = 1.2; inactive.
PH4alphaPV #2 showed infection score, replicate 1 = 23.5; inactive.
Against CG30087 #1 the deposit lists infection score, replicate 1 = 4.59; inactive.
With knock-down of CG30087 #2 the results were infection score, replicate 1 = 7.06; inactive.
For Coq4 + Gorab + frc, the entry reads infection score, replicate 1 = 0.68; inactive.
Klf15 showed infection score, replicate 1 = 1.19; inactive.
Eph showed infection score, replicate 1 = 6.51; inactive.

Copied from the list.
Entry for CG30087 #1 in “infection score, replicate 1”: 4.59
Entry for PH4alphaPV #2 under “infection score, replicate 1”: 23.5
Eph, activity call → inactive

Additional reagents follow.
For mad2 the deposit lists infection score, replicate 1 = 1.19; inactive.
Depletion of LysP #1 resulted in: infection score, replicate 1 = 9.07; inactive.
Against LysP #2, the entry reads infection score, replicate 1 = 5.92; inactive.
After knock-down of Gr39a #1, the screen gave infection score, replicate 1 = 0.79; inactive.
For Gr39a #2 the deposit lists infection score, replicate 1 = 0.18; inactive.
Gr39a #3 showed infection score, replicate 1 = 9.45; inactive.
After knock-down of CG14563 the results were infection score, replicate 1 = 1.6; inactive.
Knock-down of CG3748 #1 came out at: infection score, replicate 1 = 2.75; inactive.
For CG3748 #2, the values are infection score, replicate 1 = 11.2; inactive.
ACC #1 gave infection score, replicate 1 = 10.6; inactive.
For ACC #2, the entry reads infection score, replicate 1 = 1.98; inactive.
dpr16 #1 showed infection score, replicate 1 = 1.86; inactive.
For dpr16 #2, the entry reads infection score, replicate 1 = 1.8; inactive.
For CG15143, the values are infection score, replicate 1 = 1.26; inactive.
After knock-down of milt #1, the screen gave infection score, replicate 1 = 3.47; inactive.
Silencing of milt #2 gave: infection score, replicate 1 = 8.07; inactive.
Knock-down of milt #3 gave: infection score, replicate 1 = 5.93; inactive.
milt #4 showed infection score, replicate 1 = 9.66; inactive.
